# Assay results as given in publication PMC7532339, “A cell-based large-scale screening of natural compounds for inhibitors of SARS-CoV-2” (Signal Transduction and Targeted Therapy, 2020).
# Tested on: Vero-E6 cells
# Experiment: Cytotoxicity assay (CCK-8)
# Format: cell-based
# Conditions: 48 h
# Procedure: Vero-E6 cells were seeded in 96-well plates (1 × 10^4 cells per well) and allowed to grow for 24 h before treatment. Then, serial 2-fold dilutions of compounds were added to the cells. At 48 h, the cells were incubated with 10 μL CCK-8 reagent (cell counting kit-8, Bimake) for 1 h at 37 °C. The absorbance at 450 nm was read by a Microplate Reader (Varioskan Flash, Thermo Fisher). Cell viability was expressed as a percentage of the treated cells to the control (untreated) cells. For each compound concentration, three wells were performed in parallel, and the mean values of the cell viability were calculated. The CC50 was calculated by nonlinear regression analysis using GraphPad Prism 8.0 software to determine the cytotoxic concentration at which 50% of the cells are viable.
substance,measurement,value
Brusatol,CC50,19 µM
